Assay results as given in publication PMC9951321.
Where a SMILES comes first, the peptide text is derived from it.

Assay: CD spectroscopy of peptide with LPS
Conditions: CONTIN method, peptide 0.1 mmol L^−1, LPS 25 µmol L^−1

SMILES	Increase of helical content in the presence of LPS [%]
CC[C@H](C)[C@H](NC(=O)[C@@H](N)CCCNC(=N)N)C(=O)N[C@@H](CCCCN)C(=O)N[C@H](C(=O)N[C@@H](C)C(=O)N[C@H](C(=O)N[C@@H](Cc1c[nH]c2ccccc12)C(=O)N[C@@H](CCCNC(=N)N)C(=O)N[C@@H](CC(C)C)C(=O)N[C@@H](C)C(=O)N[C@@H](CC(C)C)C(=O)N[C@@H](CCCNC(=N)N)C(=O)N[C@@H](Cc1c[nH]c2ccccc12)C(=O)N[C@@H](CC(C)C)C(=O)N[C@@H](CCCCN)C(=O)N[C@@H](CC(C)C)C(=O)O)[C@@H](C)O)[C@@H](C)O [KTA] (H-RIKTATWRLALRWLKL-OH)	32.2
CC[C@H](C)[C@H](NC(=O)[C@@H](N)CCCNC(=N)N)C(=O)N[C@@H](CCCCN)C(=O)N[C@H](C(=O)N[C@@H](CCCNC(=N)N)C(=O)N[C@H](C(=O)N[C@@H](Cc1c[nH]c2ccccc12)C(=O)N[C@@H](CCCNC(=N)N)C(=O)N[C@@H](CC(C)C)C(=O)N[C@@H](C)C(=O)N[C@@H](CC(C)C)C(=O)N[C@@H](CCCNC(=N)N)C(=O)N[C@@H](Cc1c[nH]c2ccccc12)C(=O)N[C@@H](CC(C)C)C(=O)N[C@@H](CCCCN)C(=O)N[C@@H](CC(C)C)C(=O)O)[C@@H](C)O)[C@@H](C)O [KTR] (H-RIKTRTWRLALRWLKL-OH)	16.4
